Assay results reported in US10300071B2, “Compositions and methods for inhibition of mycobacteria” (priority 2014, dated 2019).

Test system: human fibroblast

SMILES | concentrations at which not toxic, human fibroblast cytotoxicity [µM]
CONC(=O)[C@@H](C)Oc1ccc(Oc2nc3ccc(F)cc3s2)cc1 [NZ-289, (2R)-2-{4-[(6-fluoro-1,3-benzothiazol-2-yl)oxy]phenoxy}-N-methoxypropanamide] | ≥ 100
CONC(=O)[C@@H](C)Oc1ccc(Oc2nc3ccc(Cl)cc3o2)cc1 [NZ-296, (2R)-2-{4-[(6-chloro-1,3-benzoxazol-2-yl)oxy]phenoxy}-N-methoxypropanamide] | ≥ 100
COC(=O)C(C)c1ccc(Oc2nc3ccc(Cl)cc3s2)cc1 (stereo not drawn) [NZ-311, methyl 2-{4-[(6-chloro-1,3-benzothiazol-2-yl)oxy]phenyl}propanoate] | ≥ 100
CC(C)NC(=O)Nc1ccc(Oc2cnc3cc(Cl)ccc3n2)cc1 [NZ-322, 1-{4-[(6-chloroquinoxalin-2-yl)oxy]phenyl}-3-(propan-2-yl)urea] | ≥ 100
O=C1NCCN1c1ccc(Oc2nc3ccc(Cl)cc3s2)cc1 [NZ-341, 1-{4-[(6-chloro-1,3-benzothiazol-2-yl)oxy]phenyl}imidazolidin-2-one] | ≥ 100
CNC(=O)Nc1ccc(Oc2cnc3cc(Cl)ccc3n2)cc1 [NZ-342, 1-{4-[(6-chloroquinoxalin-2-yl)oxy]phenyl}-3-methylurea] | ≥ 100
CC(C)NC(=O)Nc1ccc(Oc2nc3ccc([N+](=O)[O-])cc3s2)cc1 [NZ-363, 1-{4-[(6-nitro-1,3-benzothiazol-2-yl)oxy]phenyl}-3-(propan-2-yl)urea] | ≥ 100

Test system: S. cerevisiae

SMILES | concentrations at which not toxic, s. cerevisiae cytotoxicity [µM]
CONC(=O)[C@@H](C)Oc1ccc(Oc2nc3ccc(F)cc3s2)cc1 [NZ-289, (2R)-2-{4-[(6-fluoro-1,3-benzothiazol-2-yl)oxy]phenoxy}-N-methoxypropanamide] | ≥ 100
CONC(=O)[C@@H](C)Oc1ccc(Oc2nc3ccc(Cl)cc3o2)cc1 [NZ-296, (2R)-2-{4-[(6-chloro-1,3-benzoxazol-2-yl)oxy]phenoxy}-N-methoxypropanamide] | ≥ 100
COC(=O)C(C)c1ccc(Oc2nc3ccc(Cl)cc3s2)cc1 (stereo not drawn) [NZ-311, methyl 2-{4-[(6-chloro-1,3-benzothiazol-2-yl)oxy]phenyl}propanoate] | ≥ 100
CC(C)NC(=O)Nc1ccc(Oc2cnc3cc(Cl)ccc3n2)cc1 [NZ-322, 1-{4-[(6-chloroquinoxalin-2-yl)oxy]phenyl}-3-(propan-2-yl)urea] | ≥ 100
CC(C)NC(=O)Nc1ccc(Oc2nc3ccc([N+](=O)[O-])cc3s2)cc1 [NZ-363, 1-{4-[(6-nitro-1,3-benzothiazol-2-yl)oxy]phenyl}-3-(propan-2-yl)urea] | ≥ 100
